Measurements reported in PubChem BioAssay AID1259414 (Drosophila RNAi Screening Center, 2018)
The deposit covers about 24,000 reagents; this is a random part of those with a known target gene and a result. Of all reagents, about 1,210 (5%) were called active. 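Inactive calls also include excluded dsRNAs with several or no targets, genes unexpressed in JW18, and well A1, regardless of score.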 A number with no mark means an inactive call. The numbers tell different reagents against one gene apart. Names joined by + are all predicted targets of the reagent.

Test: 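Fly genes that alter Wolbachia amount inside host cells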 (primary screen)
Cells: Drosophila JW18 cells infected with Wolbachia
Reagents: long dsRNA against Drosophila genes, 0.25 µg dsRNA per well of a 384-well plate
Duration: 5 days
Conditions: cells persistently infected with Wolbachia before knock-down; no added drug
Read-out: 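Automated imaging of bacterial rRNA staining divided by host cell count, reported as plate-normalised robust z-score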
Reading the numbers: Wolbachia per cell robust z: higher = more Wolbachia per host cell than the plate typical
Rule for the call: 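Active if absolute robust z reaches 1.5 in two or more of three replicates, leaving out multi- or no-target dsRNAs, genes unexpressed in JW18 and A1 wells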

| target gene | reagent | Wolbachia per cell robust z, rep 1 | Wolbachia per cell robust z, rep 2 | Wolbachia per cell robust z, rep 3 |
| --- | --- | --- | --- | --- |
| Dph3 | 1 | -4.71 | -1.02 | 1.15 |
| Dph3 | 2 | 0.615 | 0.325 | 0.182 |
| CG3301 | 1 | -0.264 | -0.628 | 1.13 |
| if | 1 | -0.198 | 0.615 | -4.84 |
| BI-1 | 1 | -0.681 | -0.245 | 0.985 |
| Coq5 | 1 | -2.18 (active) | -7.15 | 0.488 |
| Coq5 | 2 | -1.03 | -0.0902 | -1.02 |
| Coq5 | 3 | 0.0934 | 0.84 | -0.699 |
| unc79 | 1 | -0.574 | -0.433 | -0.0876 |
| unc79 | 2 | 1.14 | -0.36 | -0.693 |
| Rgk1 | 1 | 0.412 | 1.14 | 1.33 |
| Rgk1 | 2 | 0.0276 | 0.791 | 0.249 |
| Rgk1 | 3 | 0.403 | 0.213 | 0.642 |
| Rgk1 | 4 | 1.14 | 0.852 | 0.278 |
| Rgk1 | 5 | -0.506 | -0.344 | -1.74 |
| CG4210 | 1 | 0.0551 | -0.569 | -0.269 |
| CG4210 | 2 | -5.24 (active) | -1.91 | -0.651 |
| Hen1 | 1 | -1.06 | 0.623 | -2.5 |
| Hen1 | 2 | -0.335 | -3.18 | 0.507 |
| Hen1 | 3 | -7.86 | 0.671 | 0.157 |
| CG18788 | 1 | 0.817 | 0.493 | 0.231 |
| CG33271 | 1 | -0.136 | 0.523 | 1.8 |
| CG5854 | 1 | 0.481 | 0.547 | 0.909 |
| CG5854 | 2 | -5.5 | -1.19 | -0.462 |
| CG10041 | 1 | -1.1 | 0.573 | 1.02 |
| CG10041 | 2 | 0.44 | 0.484 | -0.576 |
| Klp98A | 1 | -0.605 | -0.2 | -2.74 |
| Klp98A | 2 | 0.647 | 0.262 | 0.051 |
| CG32815 | 1 | -0.768 | -0.209 | 0.667 |
| CG32815 | 2 | -1.63 (active) | -0.79 | -2.98 |
| Prp8 | 1 | 3.25 (active) | 3.44 | 4.83 |
| CG31055 | 1 | -0.146 | 0.452 | -0.685 |
| vir | 1 | 0.621 | -0.304 | -0.219 |
| vir | 2 | 0.822 | 0.336 | 0.762 |
| CG6041 | 1 | -0.0352 | -1.62 | -0.784 |
| CG6041 | 2 | -0.214 | -0.532 | 0.785 |
| CG9029 | 1 | -0.836 | -1.17 | -1.75 |
| CG15471 | 1 | -0.196 | 0.103 | 1.22 |
| CG15471 | 2 | 2.23 | 0.548 | -0.0986 |
| Cat | 1 | 0.243 | 0.282 | -0.247 |
| Cat | 2 | -4.49 | -0.303 | 0.955 |
| Cat | 3 | 0.596 | 0.127 | -0.342 |
| Sfp36F | 1 | 1.1 | 1.39 | 0.505 |
| Dip-B | 1 | 0.411 | 0.602 | 0.774 |
| Dip-B | 2 | -1.13 | -0.315 | 2.37 |
| cv | 1 | 0.375 | -0.216 | 0.614 |
| Polr3F | 1 | -0.872 | -0.171 | -0.222 |
| Set2 | 1 | 0.853 | -10.3 | -0.0388 |
| Rim2 | 1 | -0.595 | 0.037 | 0.727 |
| Rim2 | 2 | -0.767 | -1.94 | -0.488 |
| His2A:CG33835 + sncRNA:430f + sncRNA:430a + 37 more | 1 | 0.23 | 1.65 | 0.707 |
| Zip42C.2 | 1 | -0.19 | -0.631 | -0.289 |
| Zip42C.2 | 2 | -0.289 | -0.729 | -0.677 |
| Zip42C.2 | 3 | -0.841 | 0.909 | -0.632 |
| Sec61gamma | 1 | 0.897 | 0.855 | 0.551 |
| Sec61gamma | 2 | -4.32 | 1.48 | 0.335 |
| Eph | 1 | 0.256 | -6.67 | -0.492 |
| Eph | 2 | -0.694 | -1.76 | -1.24 |
| CG3546 | 1 | 0.292 | -0.059 | 0.294 |
| CG3546 | 2 | 0.766 | -1.39 | -1.13 |
| CG13044 | 1 | 0.0367 | -1.16 | 1.67 |
| CG13044 | 2 | -0.00826 | -0.917 | -0.306 |
| rogdi | 1 | 0.237 | 0.372 | -0.0864 |
| Ho | 1 | -0.813 | 0.0509 | -1.23 |
| Galk | 1 | 1.13 | -3.13 | 0.115 |
| Galk | 2 | 0.92 | 0.902 | -0.0276 |
| GNBP-like3 | 1 | -4.65 | -0.871 | -1.04 |
| Pdfr | 1 | 0.617 | -5.89 | 0.508 |

Records above whose gene name begins with R or r:
| target gene | reagent | Wolbachia per cell robust z, rep 1 | Wolbachia per cell robust z, rep 2 | Wolbachia per cell robust z, rep 3 |
| --- | --- | --- | --- | --- |
| Rgk1 | 1 | 0.412 | 1.14 | 1.33 |
| Rgk1 | 2 | 0.0276 | 0.791 | 0.249 |
| Rgk1 | 3 | 0.403 | 0.213 | 0.642 |
| Rgk1 | 4 | 1.14 | 0.852 | 0.278 |
| Rgk1 | 5 | -0.506 | -0.344 | -1.74 |
| Rim2 | 1 | -0.595 | 0.037 | 0.727 |
| Rim2 | 2 | -0.767 | -1.94 | -0.488 |
| rogdi | 1 | 0.237 | 0.372 | -0.0864 |
